tested on: SARS-CoV-2 S-G614 pseudovirus; settings: CC50 293T-ACE2 vs S-G614 EC50

Row | Structure (SMILES) | SI (cytotoxicity)
1 | COc1ccc2cc1Oc1ccc(cc1)C[C@H]1c3c(cc4c(c3Oc3cc5c(cc3OC)CCN(C)[C@@H]5C2)OCO4)CCN1C [SC9, Cepharanthine] | >158.58
2 | COc1ccc2cc1Oc1ccc(cc1)C[C@H]1c3cc(c(OC)cc3CCN1C)Oc1c(OC)c(OC)c(OC)c3c1[C@H](C2)N(C)CC3 [SC161, Hernandezine] | >448.83
3 | CC1CCN(CC(O)COc2cccc(OCC(O)CN3CCC(C)CC3)c2)CC1 (stereo not shown) [SC171, 3,3'-(1,3-phenylenebis(oxy))bis(1-(4-methylpiperidin-1-yl)propan-2-ol)] | >13.06
4 | COc1ccc(C[C@@H]2c3cc(Oc4cc(C[C@@H]5c6cc(OC)c(OC)cc6CCN5C)ccc4O)c(OC)cc3CCN2C)cc1 [SC185, Neferine] | >52.87

— publication PMC7985570 (Signal Transduction and Targeted Therapy, 2021)
